Experimental data from a compilation of properties of binary mixtures (doi:10.1016/j.fluid.2021.113137).

Test: xn = mol fraction of the nth substance listed
Conditions: 100 kPa

CC[n+]1ccn(C)c1.O=S(=O)(F)[N-]S(=O)(=O)F + O
Conditions | electrical conductivity [S/m] | mass density [kg/m3] | viscosity [mPa·s]
288.15 K, x1 = 0.7211 | 1.94 | – | –
288.15 K, x1 = 0.771 | 1.79 | – | –
288.15 K, x1 = 0.7797 | – | 1437.8 | 16.98
288.15 K, x1 = 0.8143 | – | 1440.2 | 18.13
288.15 K, x1 = 0.8663 | 1.54 | – | –
288.15 K, x1 = 0.8796 | – | 1444.6 | 20.68
288.15 K, x1 = 0.9111 | – | 1446.5 | 22.02
288.15 K, x1 = 0.9349 | 1.39 | – | –
288.15 K, x1 = 0.9433 | – | 1448.3 | 23.46
288.15 K, x1 = 0.9693 | – | 1449.7 | 24.73
288.15 K, x1 = 0.9748 | 1.3 | – | –
293.15 K, x1 = 0.771 | 2.05 | – | –
293.15 K, x1 = 0.7797 | – | 1433.2 | 14.66
293.15 K, x1 = 0.8143 | – | 1435.7 | 15.68
293.15 K, x1 = 0.8207 | 1.92 | – | –
293.15 K, x1 = 0.8466 | – | 1437.9 | 16.7
293.15 K, x1 = 0.8663 | 1.78 | – | –
293.15 K, x1 = 0.8796 | – | 1440 | 17.78
293.15 K, x1 = 0.8994 | 1.7 | – | –
293.15 K, x1 = 0.9111 | – | 1442.1 | 18.92
293.15 K, x1 = 0.9349 | 1.6 | – | –
293.15 K, x1 = 0.9433 | – | 1443.9 | 20.1
293.15 K, x1 = 0.9693 | – | 1445.3 | 21.13
298.15 K, x1 = 0.7211 | 2.5 | – | –
298.15 K, x1 = 0.771 | 2.32 | – | –
298.15 K, x1 = 0.7797 | – | 1428.6 | 12.82
298.15 K, x1 = 0.8143 | – | 1430.8 | 13.69
298.15 K, x1 = 0.8796 | – | 1435.4 | 15.47
298.15 K, x1 = 0.8994 | 1.93 | – | –
298.15 K, x1 = 0.9349 | 1.83 | – | –
298.15 K, x1 = 0.9433 | – | 1439.2 | 17.4
298.15 K, x1 = 0.9693 | – | 1440.6 | 18.26
298.15 K, x1 = 0.9748 | 1.73 | – | –
303.15 K, x1 = 0.7211 | 2.81 | – | –
303.15 K, x1 = 0.7797 | – | 1423.7 | 11.3
303.15 K, x1 = 0.8143 | – | 1426.3 | 12.02
303.15 K, x1 = 0.8207 | 2.46 | – | –
303.15 K, x1 = 0.8663 | 2.29 | – | –
303.15 K, x1 = 0.8796 | – | 1430.7 | 13.57
303.15 K, x1 = 0.9349 | 2.08 | – | –
303.15 K, x1 = 0.9433 | – | 1434.4 | 15.21
303.15 K, x1 = 0.9693 | – | 1436 | 15.93
303.15 K, x1 = 0.9748 | 1.97 | – | –
308.15 K, x1 = 0.8143 | – | 1421.7 | 10.7
308.15 K, x1 = 0.8207 | 2.75 | – | –
308.15 K, x1 = 0.8466 | – | 1423.9 | 11.35
308.15 K, x1 = 0.8796 | – | 1426 | 12
308.15 K, x1 = 0.8994 | 2.45 | – | –
308.15 K, x1 = 0.9111 | – | 1428.1 | 12.69
308.15 K, x1 = 0.9349 | 2.34 | – | –
308.15 K, x1 = 0.9433 | – | 1430 | 13.4
308.15 K, x1 = 0.9693 | – | 1431.4 | 14.01
308.15 K, x1 = 0.9748 | 2.23 | – | –
313.15 K, x1 = 0.7211 | 3.44 | – | –
313.15 K, x1 = 0.771 | 3.22 | – | –
313.15 K, x1 = 0.8143 | – | 1417.1 | 9.56
313.15 K, x1 = 0.8663 | 2.85 | – | –
313.15 K, x1 = 0.8796 | – | 1421.5 | 10.69
313.15 K, x1 = 0.8994 | 2.74 | – | –
313.15 K, x1 = 0.9111 | – | 1423.6 | 11.29
313.15 K, x1 = 0.9349 | 2.62 | – | –
313.15 K, x1 = 0.9433 | – | 1425.4 | 11.9
313.15 K, x1 = 0.9693 | – | 1426.6 | 12.42
313.15 K, x1 = 0.9748 | 2.48 | – | –
318.15 K, x1 = 0.7211 | 3.79 | – | –
318.15 K, x1 = 0.771 | 3.54 | – | –
318.15 K, x1 = 0.7797 | – | 1409.9 | 8.1
318.15 K, x1 = 0.8143 | – | 1412.5 | 8.6
318.15 K, x1 = 0.8466 | – | 1414.6 | 9.11
318.15 K, x1 = 0.8663 | 3.15 | – | –
318.15 K, x1 = 0.8796 | – | 1417 | 9.59
318.15 K, x1 = 0.8994 | 3.03 | – | –
318.15 K, x1 = 0.9111 | – | 1418.9 | 10.11
318.15 K, x1 = 0.9349 | 2.9 | – | –
318.15 K, x1 = 0.9433 | – | 1420.9 | 10.64
318.15 K, x1 = 0.9748 | 2.77 | – | –
323.15 K, x1 = 0.7211 | 4.14 | – | –
323.15 K, x1 = 0.771 | 3.88 | – | –
323.15 K, x1 = 0.7797 | – | 1405.2 | 7.34
323.15 K, x1 = 0.8143 | – | 1407.9 | 7.78
323.15 K, x1 = 0.8207 | 3.7 | – | –
323.15 K, x1 = 0.8466 | – | 1410.2 | 8.23
323.15 K, x1 = 0.8663 | 3.45 | – | –
323.15 K, x1 = 0.9349 | 3.2 | – | –
323.15 K, x1 = 0.9433 | – | 1416.2 | 9.57
323.15 K, x1 = 0.9693 | – | 1417.6 | 9.96
323.15 K, x1 = 0.9748 | 3.05 | – | –
328.15 K, x1 = 0.7211 | 4.5 | – | –
328.15 K, x1 = 0.771 | 4.23 | – | –
328.15 K, x1 = 0.7797 | – | 1400.6 | 6.68
328.15 K, x1 = 0.8143 | – | 1403.4 | 7.07
328.15 K, x1 = 0.8207 | 4.03 | – | –
328.15 K, x1 = 0.8466 | – | 1405.6 | 7.48
328.15 K, x1 = 0.8663 | 3.79 | – | –
328.15 K, x1 = 0.8796 | – | 1407.9 | 7.74
328.15 K, x1 = 0.8994 | 3.66 | – | –
328.15 K, x1 = 0.9111 | – | 1410 | 8.25
328.15 K, x1 = 0.9433 | – | 1411.9 | 8.65
328.15 K, x1 = 0.9693 | – | 1413.3 | 9
328.15 K, x1 = 0.9748 | 3.36 | – | –
333.15 K, x1 = 0.771 | 4.6 | – | –
333.15 K, x1 = 0.7797 | – | 1396.2 | 6.11
333.15 K, x1 = 0.8143 | – | 1398.9 | 6.46
333.15 K, x1 = 0.8207 | 4.38 | – | –
333.15 K, x1 = 0.8466 | – | 1401.1 | 6.83
333.15 K, x1 = 0.8994 | 3.99 | – | –
333.15 K, x1 = 0.9349 | 3.84 | – | –
333.15 K, x1 = 0.9433 | – | 1407.4 | 7.86
333.15 K, x1 = 0.9693 | – | 1408.9 | 8.17
